From US9938562B2, “Naphthalene derived chromogenic enzyme substrates” (Glycosynth Limited, priority 2013, dated 2018)

Tested on: clinical isolates of E. coli
Assay: Glucuronide sensitivity screen, agar plates (CPS ID 3 or Columbia agar)
Assay type: cell-based
Conditions: E. coli O157 non-toxigenic

Substance: 6-chloro-3-indolyl β-D-glucuronide
- Colour: −
